In the supplement of paper PMC9931576:
Substitutions are numbered along the chain they refer to. Human monoclonal antibodies against the spike receptor-binding domain (heavy:light variable regions). IC50 against pseudoviruses bearing the spike of naturally observed variants; lower = stronger; >10 µg/ml means not reached at the top dose. No active / inactive call. The stated detection limit is 0.0005 µg/ml; values near or below 0.001 µg/ml lie at the floor of the assay.

B1: DH1072 (protein)
chain 1: QVQLVESGGGVVQPGRSLRLSCAASGFTFSHYGMHWVRQAPGKGLEWVALISYDGNNKYYADSVKGRFTISRDNSKNTLYLQMNSLRAEDTAVYYCAKAPYSYAYSVYFFDYWGQGTLVTVSS
chain 2: NFMLTQPHSVSESPGKTVTISCTRSSGSIASNNVQWYQQRPGSAPTTVIYEDNQRPSGVPDRFSGSIDSSSNSASLTISGLKTEDEADYYCQSYDSSNHVVFGGGTKLTVL
B2: BD56-577 (protein)
chain 1: QEQVEESGGGVVQPGRSLRLSCAASGFTFRNSAMHWVRQAPGKGLEWVALISYDGTKTFYADSVNGRFSISRDNSKNRLYLRLSALRPEDTAIYYCARGIGYCTDDDVCHTPYYYYGMDVWGPGTTVTVSS
chain 2: DIQITQSPSSLSASVGDRVTIACRASQTISSYLNWYQHKPGKAPSLLIYGASSLQSGVPSRFSGSGSGTDFTLTIRSLQPEDFATYYCQQTYSPPLTFGGGTKVEIK
B3: BD56-581 (protein)
chain 1: EVQLVQSGSELKKPGASVKVSCKAFGYPFTTFAMNWVRQAPGQGLEWMGWIDTNTGNPTYAQGFTGRFVFSLDTSVSTAYLQISSLKTEDTAVYYCASWGGSVGPGWFDPWGQGTLVTVSS
chain 2: SYVLTQPPSVSVAPGKTARITCGGNNIGSRSVHWYQQKPGQAPVLVIYYDSDRPSGVPERFSGSNSGNTATLTISRVEGGDEADYYCQVWVSSHDHPEDVVFGGGTKLTVL
B4: BD56-595 (protein)
chain 1: QITLKESGPTLVKPTQTLTLTCTFSGFSITTAGVGVGWIRQPPGKALEWLALIYWDGDRRYSPSLKNRVDITTDISKNQVVLTMTNMAPVDTATYYCAQHTIDMILDYWGQGTLVTVSS
chain 2: QSALTQPPSASGSPGQSVTISCTATSSDVGAYNYVSWYQQHPGKAPKLMIYEVNKRPSGVPDRFSGSKSGNTASLTVSGLQAEDEADYYCSSYTDNIVFGTGTRVTVL
B5: BD56-587 (protein)
chain 1: QVQLVQSGAEVKKPGSSVKVSCKASGGTFSSYAFSWVRQAPGQGLEWMGRIIPVLAITNYARKFQGRVAITADTSTSTAYMELSSLRSEDTAVYYCARDLDYDILTGRRGGYFYYYMDVWGKGTTVTVSS
chain 2: QSVLTQPPSASGTPGQRVTISCSGSSSNIGSNAVNWYLQLPGTAPKLLIYNNDQRPSGVPDRFSGSKSGTSASLAISGLQSEDEADYHCAAWDDSLGGQEVFGTGTKVTVL
B6: BD56-592 (protein)
chain 1: QVQLQESGPGLVKPSETLSLTCTVSGGSISTIRNRIYYWGWIRQSPGKGLEWIGSVHYTGTTYYNKSLTSRVTISVDTSKNQLSLRLSSVTAADTAVYYCARHFYSSDYFDYWGQGTLVTVSS
chain 2: QSVLTQPPSVSGAPGQRVTVSCTGSSSNIGAGYDVHWYRQLPGTTPKLLIYGNSYRPSGVPDRFSGSKSDTSASLAITGLQAEDEADYYCQSYDSSLSAWVFGGGTKLTVL
B7: BD56-597 (protein)
chain 1: QVQLVQSGAEVKKPGSSVKVSCKASGGTFSTYPISWVRQAPGQGVEWMGAIIPILGTTDYAQIFQGRVTITADKSTSTAYMELSSLRPEDTAVYYCARERGYSGYGAAYYFDSWGQGTLVTVSS
chain 2: B6 chain 2 with V20I, S26D, R39Q, T45A, G52V, S54I, Y55N, D70A, A99G, W100V
B8: BD56-602 (protein)
chain 1: EVQLVESGGGLVQPGGSLRLSCAASGFTFSSYDMHWVRQVTGKGLEWVSTIGTAGDTYYPGSVKGRFTISRENVKSSLYLQMNSLRAGDTAVYFCARVGYDSSGLHWYIDYWGQGTLVTVSS
chain 2: DIQMTQSPPSLSASVGDRVTITCRASQSIGRYLNWYQQKPGKAPKLLIYAASSLQRGVPSRFSGSGSGTDFTLTITSLQPEDFATYYCQQSYSNPLYTFGQGTKLEI
B9: BD56-576 (protein)
chain 1: EVQLVESGGGLVQPGGSLRLSCAASGFTFSSYDMHWVRQTPGEGLEWVSLIGTAGDTYYPESVKGRFTISRENAKNSLYLQMNNLRAGDTAVYYCARAGYDILTAYLDLWGRGTLVTVSS
chain 2: DIQMTQSPSSLSASVGDTVTITCRASQSIRTYLNWYQQKPGKAPKLLIYAASSLQSGVPSRFSGSGSGTEFTLTISSLQPEDFATYYCQQSYIMPPWTFGQGTKVEIK
B10: BD56-588 (protein)
chain 1: EVQLVESGGGLVPPGGSLRLSCAASGFSFSNYDMHWVRQATGKGLEWVSGIGTSGDTYYAVSVKGRFTISRENAKNSLYLQMNSLRAGDTAVYYCARGGTDSSGFYYWFDPWGQGTLVTVSS
chain 2: B9 chain 2 with T18R, R30N, T31N, Y49F, E70D, F71Y, I93S, M94S
B11: BD56-591 (protein)
chain 1: EVQLVESGGGLVQPGGSLRLSCAASGFTFSRNDMHWVRQSTGKGLEYVSTIGTSGDAYYADSVKGRFSISRENAKNSLFLQMNSLRAGDTAVYFCTRGGDGYKLGSWYFDLWGRGTLVTVSS
chain 2: DIQMTQSPSSLSASLGDRVTIACRASQTIGTFLNWYQQQPGKAPKLLIYAASTLQSGVPSRFSGSGSGTDFTLTISSLQPDDFATYYCQQSYSTSITFGLGTRLEI
B12: BD56-600 (protein)
chain 1: EVQLLESGGGLVQPGGSLRLSCAASGFTFSNYALSWVRQAPGKGLEWVSGISGTGGGTFYADSVKGRFTISRDNSKNTLYLQMNTLRVEDTAVYYCAKEGTDIHWYFDLWGRGTLVTVSS
chain 2: DIQMTQSPSSLSASVGDRVTITCRASQNIRTYLNWYQLKPGKAPKLLIYAASTLQSGVPSRFSAGGSGTDFTLTISSLQPEDFATYYCQQSYSTPPITFGQGTRLEIK

target: SARS-CoV-2 Omicron BA.1 spike pseudovirus; assay: pseudovirus neutralization IC50; higher = weaker neutralization
Experimental: (§1)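 Single-round VSV luciferase pseudovirus mixed with antibody dilutions for 1 h and put on Huh-7 cells for about a day; IC50 from the dose curve.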

Binder	pseudovirus neutralization IC50
B1	> 10 µg/mL
B2	> 10 µg/mL
B3	0.235 µg/mL
B4	0.00119 µg/mL
B5	0.0289 µg/mL
B6	0.107 µg/mL
B7	0.0782 µg/mL
B8	5.42 µg/mL
B9	1.92 µg/mL
B10	> 10 µg/mL
B11	> 10 µg/mL
B12	> 10 µg/mL

target: SARS-CoV-2 Omicron BA.2 spike pseudovirus; assay: as above
Experimental: as §1

Binder	pseudovirus neutralization IC50
B1	> 10 µg/mL
B2	> 10 µg/mL
B3	0.247 µg/mL
B4	0.000387 µg/mL
B5	0.0325 µg/mL
B6	0.0917 µg/mL
B7	0.08 µg/mL
B8	4.28 µg/mL
B9	2.93 µg/mL
B10	> 10 µg/mL
B11	> 10 µg/mL
B12	> 10 µg/mL

target: SARS-CoV-2 Omicron BA.2.75 spike pseudovirus; assay: as above
Experimental: as §1

Binder	pseudovirus neutralization IC50
B1	> 10 µg/mL
B2	> 10 µg/mL
B3	0.21 µg/mL
B4	0.00209 µg/mL
B5	0.0286 µg/mL
B6	0.0489 µg/mL
B7	0.0726 µg/mL
B8	5.02 µg/mL
B9	6.12 µg/mL
B10	> 10 µg/mL
B11	> 10 µg/mL
B12	> 10 µg/mL

target: SARS-CoV-2 Omicron BA.5 spike pseudovirus; assay: as above
Experimental: as §1

Binder	pseudovirus neutralization IC50
B1	> 10 µg/mL
B2	> 10 µg/mL
B3	> 10 µg/mL
B4	0.000564 µg/mL
B5	> 10 µg/mL
B6	> 10 µg/mL
B7	0.122 µg/mL
B8	4.41 µg/mL
B9	2.76 µg/mL
B10	> 10 µg/mL
B11	> 10 µg/mL
B12	> 10 µg/mL

target: SARS-CoV-2 Omicron BQ.1.1 spike pseudovirus; assay: as above
Experimental: as §1

Binder	pseudovirus neutralization IC50
B1	> 10 µg/mL
B2	> 10 µg/mL
B3	> 10 µg/mL
B4	> 10 µg/mL
B5	> 10 µg/mL
B6	> 10 µg/mL
B7	0.232 µg/mL
B8	2.88 µg/mL
B9	3.46 µg/mL
B10	> 10 µg/mL
B11	> 10 µg/mL
B12	> 10 µg/mL

target: SARS-CoV-2 Omicron XBB spike pseudovirus; assay: as above
Experimental: as §1

Binder	pseudovirus neutralization IC50
B1	> 10 µg/mL
B2	> 10 µg/mL
B3	> 10 µg/mL
B4	> 10 µg/mL
B5	> 10 µg/mL
B6	> 10 µg/mL
B7	0.706 µg/mL
B8	5.78 µg/mL
B9	3.86 µg/mL
B10	> 10 µg/mL
B11	> 10 µg/mL
B12	> 10 µg/mL

target: SARS-CoV-2 early D614G spike pseudovirus; assay: as above
Experimental: as §1

Binder	pseudovirus neutralization IC50
B1	1.36 µg/mL
B2	> 10 µg/mL
B3	1.04 µg/mL
B4	0.001 µg/mL
B5	0.0134 µg/mL
B6	0.0751 µg/mL
B7	0.0675 µg/mL
B8	> 10 µg/mL
B9	3.3 µg/mL
B10	> 10 µg/mL
B11	> 10 µg/mL
B12	7.87 µg/mL
